Pooled drug test results. Numbers come from NIAID ChemDB, via PubChem.

Common to all: growth or infection tests; species: Epstein-Barr virus; endpoint: EC50

ECn is the concentration giving n% inhibition of infection, replication or growth.

compound	cells	strain or isolate	read by	value
Cc1cccc2c1OP(=O)(OC[C@H]1O[C@@H](n3cc(/C=C/Br)c(=O)[nH]c3=O)C[C@@H]1OC(=O)CN)OC2			hybridisation	29.8 µg/mL
COC(=O)[C@H](C)NP(=O)(OC[C@H]1C/C1=C/n1cnc2c(OC)nc(N)nc21)Oc1ccccc1	H-1		hybridisation	0.4 µM
O=P(O)(O)COCCn1cnc2c(N3CCCCC3)ncnc21	P3HR-1		hybridisation	19 µg/mL
CO[C@H]1O[C@@H](n2ccc(=O)[nH]c2=O)C[C@@H]1N=[N+]=[N-]	P3HR-1			>30 µM
Cc1ccc(S(=O)(=O)Oc2nn(C3=CCCO3)nc2C(F)(F)C(F)(F)C(F)(F)F)cc1		B95-8 lymphoblastoid	PCR	7 µM
CON=C1C[C@H](n2cc(C)c(=O)[nH]c2=O)O[C@@H]1CO	P3HR-1		hybridisation	>50 µg/mL
Cc1cccc2c1OP(=O)(OC[C@H]1O[C@@H](n3cc(/C=C/Br)c(=O)[nH]c3=O)C[C@@H]1OC(=O)[C@H](N)Cc1ccccc1)OC2			hybridisation	36.1 µg/mL
Cc1cn([C@H]2C[C@H](N=[N+]=[N-])[C@@H](CO)O2)c(=O)nc1N	P3HR-1			>30 µM
C[C@H](N)C(=O)O[C@H]1C[C@H](n2cc(/C=C/Br)c(=O)[nH]c2=O)O[C@@H]1COP1(=O)OCc2ccccc2O1			hybridisation	18.7 µg/mL
CC(C)Nc1nc2cc(Cl)c(Cl)cc2n1[C@H]1O[C@@H](CO)[C@H](O)[C@@H]1O	Akata			0.63 µM
Cc1cn([C@H]2C[C@H]([N+](=O)[O-])[C@@H](CO)O2)c(=O)[nH]c1=O	P3HR-1		hybridisation	>50 µg/mL
COC(=O)[C@H](C)NP(=O)(OC[C@H]1C/C1=C\n1cnc2c(=O)[nH]c(N)nc21)Oc1ccccc1	H-1		hybridisation	8 µM
Nc1nc2c(ncn2COCCO)c(=O)[nH]1	DAUDI		antigen	5.3 µM
Nc1ccn([C@H]2CO[C@@H](CO)O2)c(=O)n1	P3HR-1			1.5 µM
Cc1cccc2c1OP(=O)(OC[C@H]1O[C@@H](n3cc(/C=C/Br)c(=O)[nH]c3=O)C[C@@H]1OC(=O)[C@H](C)N)OC2			hybridisation	24.7 µg/mL
COC(=O)[C@H](C)NP(=O)(OC[C@H]1C/C1=C/n1cnc2c(N)nc(N)nc21)Oc1ccccc1	H-1		hybridisation	5.5 µM
O=c1[nH]c(=O)n([C@H]2C[C@H](O)[C@@H](CO)O2)cc1/C=C/Br	P3HR-1		PCR	22 µg/mL
CCCCCC(=O)O[C@H]1C[C@H](n2cc(/C=C/Br)c(=O)[nH]c2=O)O[C@@H]1COP1(=O)OCc2cccc(C)c2O1	P3HR-1			>100 µg/mL
O=c1cc(N2CCOCC2)oc2c(-c3ccccc3)cccc12	Akata		PCR	1.835 µM
Nc1nc2c(ncn2COC(CO)CO)c(=O)[nH]1	P3HR-1		hybridisation	0.2 µg/mL
CC(=O)O[C@H]1C[C@H](n2cc(/C=C/Br)c(=O)[nH]c2=O)O[C@@H]1COP1(=O)OCc2cccc(C)c2O1	P3HR-1			>50 µg/mL
Nc1ncnc2c1ncn2CCOCP(=O)(O)O	P3HR-1		hybridisation	3.3 µg/mL
Nc1[nH]c(=O)nc2c1ncn2/C=C1/C[C@@H]1CO	H-1		hybridisation	>20 µM
O=C(O)c1ccc(NS(=O)(=O)c2ccc(NC3=CC(=O)c4ccccc4C3=O)cc2)cc1	P3HR-1		hybridisation	2.2 µg/mL
Nc1nc2c(ncn2COC(CO)CO)c(=O)[nH]1		B95-8 lymphoblastoid	PCR	3.9 µM
C=CC(C)(C)C1=Cc2cc3c(cc2OC1=C)OC(C(C)(C)OC(C)=O)C3	P3HR-1		PCR	5.43 µM
Nc1ccn([C@H]2CC[C@@H](CO)O2)c(=O)n1	P3HR-1		hybridisation	28 µg/mL
Nc1ncnc2c1ncn2[C@@H]1C[C@@H](O)[C@H](CO)O1	DAUDI			5.7 µM
Nc1nc2c(ncn2[C@H]2C[C@@]23C[C@@H]3CO)c(=O)[nH]1	DAUDI		plaque count	6 µM
CC(=O)c1c(O)c(C)c(O)c(Cc2c(O)c3c(c(C(=O)/C=C/c4ccccc4)c2O)OC(C)(C)C=C3)c1O	Akata		PCR	0.983 µM
C/C(=N\C1O[C@H](CO)[C@@H](O)[C@H](O)C1Cl)n1nc(OS(=O)(=O)c2ccc(C)cc2)c(C(F)(F)F)n1		B95-8 lymphoblastoid	PCR	15.6 µM
Nc1ncnc2c1ncn2[C@H]1C[C@]12C[C@H]2CO	DAUDI		plaque count	22 µM
Nc1nc(F)nc2c1ncn2/C=C1/CC1CO	H-1		hybridisation	>20 µM
COC[C@H]1OC(=O)c2coc3c2[C@@]1(C)C1=C(C3=O)C2CCC(=O)[C@@]2(C)C[C@H]1OC(C)=O	Akata		PCR	0.367 µM
O=C1NCc2c1c1c3ccccc3[nH]c1c1[nH]c3ccccc3c21	Akata			1.11 µM
COC(=O)/C=C/c1cc(O)ccc1O	Akata		PCR	2.373 µM
Cc1cn([C@H]2C[C@H](N=[N+]=[N-])[C@@H](CO)O2)c(=O)[nH]c1=O	P3HR-1			7.7 µM
Nc1ccn([C@@H]2C[C@@H](O)[C@H](CO)O2)c(=O)n1	DAUDI			>50 µM
O=c1[nH]c(=O)n([C@H]2C[C@H](O)[C@@H](COP3(=O)OCc4ccccc4O3)O2)cc1/C=C/Br			hybridisation	6.68 µg/mL

Again, the opening 3 rows:

Cc1cccc2c1OP(=O)(OC[C@H]1O[C@@H](n3cc(/C=C/Br)c(=O)[nH]c3=O)C[C@@H]1OC(=O)CN)OC2 ; read by: hybridisation ; value: 29.8 µg/mL
COC(=O)[C@H](C)NP(=O)(OC[C@H]1C/C1=C/n1cnc2c(OC)nc(N)nc21)Oc1ccccc1 ; cells: H-1 ; read by: hybridisation ; value: 0.4 µM
O=P(O)(O)COCCn1cnc2c(N3CCCCC3)ncnc21 ; cells: P3HR-1 ; read by: hybridisation ; value: 19 µg/mL

Conditions beyond the fields shown may differ between rows. An empty or dashed field is not shown.